Compound potency records, mixed from different reports. Data source: NIAID ChemDB in PubChem.

Shared fields: tests in culture; agent: Candida albicans; read-out: MBC

An empty or dashed field is not shown. Conditions beyond the fields shown may differ between rows.

SMILES,strain,value
COc1ccc(C2=CC(c3cc(OC)c(OC)c(OC)c3)NC(=O)N2)cc1OC,DSM 70014,25 µg/mL
CCCCCCCCCCCC[N+](C)(C)COCC(C)CC,ATCC 10231,71.4 µM
CCCCCCOC[N+](C)(C)Cc1cc(N=Nc2ccc(Cl)cc2)ccc1O,-,141 µM
CCCCCCCCCCCC[N+](C)(C)COCCCC,ATCC 10231,74 µM
CCCCCCCCCCCOC[n+]1cccc(NCNc2ccc[n+](COCCCCCCCCCCC)c2)c1,ATCC 10231,195 µM
CCCCCCCCCCCC[N+](C)(C)COCC(CC)CCC,ATCC 10231,25.5 µM
C[N+](C)(COCC1CCCCC1)Cc1cc(N=Nc2ccc(Cl)cc2)ccc1O,-,137 µM
COc1ccc(/C=c2\sc3n(c2=O)C(c2cc(OC)c(OC)c(OC)c2)C=C(c2ccc(OC)c(OC)c2)N=3)cc1,DSM 70014,100 µg/mL
CCCCCCCOC[N+](C)(C)Cc1cc(N=Nc2ccc(C)cc2)ccc1O,-,576 µM
CCCCCCCCCCCOC[n+]1cccc(NCn2nnc3ccccc32)c1,ATCC 10231,561 µM
CCCCCCCCCCOC[N+](C)(C)CCCCCCCC,ATCC 10231,137 µM
COc1cc(C2CC(c3ccc4c(c3)OCO4)=NN2c2ccccc2)cc(OC)c1OC,DSM 70014,50 µg/mL
CCCCCCCCCCCC[N+](C)(C)COC(C)CCCCCC,ATCC 10231,128 µM
CCCCCCCCOC[N+](C)(C)Cc1cc(N=Nc2ccc(C)cc2)ccc1O,-,69 µM
CCCOC[n+]1cccc(NCn2nnc3ccccc32)c1,ATCC 10231,>1499 µM
COc1cc(C2C=C(c3ccc4c(c3)OCO4)NC(=S)N2)cc(OC)c1OC,DSM 70014,200 µg/mL
CCCCCCCCCOC[n+]1cccc(NCn2nnc3ccccc32)c1,ATCC 10231,599 µM
C[N+](C)(COCCCC1CCCCC1)Cc1cc(N=Nc2ccc(Cl)cc2)ccc1O,-,260 µM
COc1ccc(C2=CC(c3cc(OC)c(OC)c(OC)c3)N3C(=O)CSC3=N2)cc1OC,DSM 70014,22 µg/mL

The first 2 rows once more:

SMILES | strain | value
COc1ccc(C2=CC(c3cc(OC)c(OC)c(OC)c3)NC(=O)N2)cc1OC | DSM 70014 | 25 µg/mL
CCCCCCCCCCCC[N+](C)(C)COCC(C)CC | ATCC 10231 | 71.4 µM